Results of unrelated studies side by side (data: NIAID ChemDB).

Common to all: tests in culture; agent: HIV-1; measure: EC50

Lines come from different laboratories, so protocols vary. ECn is the concentration giving n% inhibition of infection, replication or growth. Blank or dashed fields: not listed here.

SMILES | changes | strain or isolate | cell line | method | conditions | value
Cc1ccc(S(=O)(=O)N(CC(C)C)C[C@@H](O)[C@H](Cc2ccccc2)NC(=O)O[C@H]2CO[C@H]3OCC[C@H]32)cc1 | 8374-P62 GS-8374-resistant | IIIB | MT-2 | ATP |  | 0.0095 µM
CCc1c(C(=O)c2cc(C)cc(C)c2)n(CC2CC=CC2)c(=O)[nH]c1=O |  | IIIB | CEM + CEM-SS | cytopathic effect / XTT |  | 0.0009 µM
CCn1nc(Cc2ccc(C(F)(F)F)cc2)cc1C1CCN(C[C@H]2CN([C@@H](C(=O)O)C(C)C)C[C@@H]2c2cccc(F)c2)CC1 |  | BaL | HeLa | β-galactosidase |  | <0.0037 µM
Nc1nc(NC2CC2)c2ncn([C@H]3C=C[C@@H](CO)C3)c2n1 | RT-M41L A62V S68N G112S V118I M184V | Recombinant | HeLa | luciferase |  | 1.15 µM
Cc1cn([C@H]2C[C@H](N=[N+]=[N-])[C@@H](CO)O2)c(=O)[nH]c1=O | I401T R409K D437N | IIIB | MT-2 | p24 / ELISA |  | 0.153 µM
CCOc1ccc(Cc2cc(C3CCN(C[C@H]4CN([C@@H](C(=O)O)C(C)C)C[C@@H]4c4cccc(F)c4)CC3)n(CC)n2)cc1F |  | BaL | HeLa | β-galactosidase | 50% human serum | <0.1 µM
CC(=O)N1CCC(C(=O)N(CCCN2CCC(Cc3ccc(C(N)=O)cc3)CC2)c2ccc(C)c(Cl)c2)CC1 |  | R5 subtype C_2 recombinant | U87 (CD4+ CCR5+) + U87 | luciferase |  | 0.0074 µM
CCCCOc1ccc(Cc2cc(C3CCN(C[C@H]4CN([C@@H](C(=O)O)C(C)C)C[C@@H]4c4cccc(F)c4)CC3)n(CC)n2)cc1 |  | BaL | HeLa | β-galactosidase | 50% human serum | <0.3 µM
CCN(c1nc(F)ccc1NC(C)(C)C)C1CCN(C(=O)c2cc3cc(NC(=O)N4CCN(C)CC4)ccc3[nH]2)CC1 | ATV-P47 atazanavir-resistant mutant | IIIB | MT-2 | ATP |  | 0.0047 µM
CCCc1cc(=O)oc2c3c(c4c(c12)OC(C)(C)C=C4)O[C@@H](C)[C@H](C)[C@@H]3O |  | NL4-3 | CEM + CEM-SS | XTT |  | 0.2 µM
Nc1nc(=O)n([C@@H]2CS[C@H](CO)O2)cc1F |  |  | PBMC | single cycle / fluorescence |  | 0.004244 µM
CO[P@](=O)(c1cc(C)cc(/C=C/C#N)c1)c1c(C(N)=O)[nH]c2ccc(Cl)cc12 | Y181C/K103N | BH10 | MT-4 |  |  | 0.0066 µM
Cc1ccnc2c1NC(=O)c1cccnc1N2C1CC1 | RT-Y181C | NNRTI-resistant (RT Y181C) | MAGI | β-galactosidase |  | 10.3 µM
Cc1ccnc2c1NC(=O)c1cccnc1N2C1CC1 |  |  | MT-4 |  |  | <0.4 µM
N#Cc1cc2[nH]c3ccccc3c2n(-c2ccc([N+](=O)[O-])cc2)c1=O | RT-M184V | Recombinant | HeLa | luciferase |  | 0.62 µM
Cc1cn([C@H]2C[C@H](N=[N+]=[N-])[C@@H](CO)O2)c(=O)[nH]c1=O |  | IIIB | CEM + CEM-SS | XTT |  | 0.003 µM
Cc1ccnc2c1NC(=O)c1cccnc1N2C1CC1 | RT-L74V Y181C | HXB2 | HT4 + HT4 LacZ-1 | plaque count |  | 4 µM
CCCc1cc(=O)oc2c3c(c4c(c12)OC(C)(C)C=C4)O[C@H](C)[C@@H](C)[C@@H]3O |  | SK1 | CEM + CEM-SS | XTT |  | 0.09 µM
CCn1nc(Cc2ccc(Cl)cc2)cc1C1CCN(C[C@H]2CN([C@@H](C(=O)O)C3CCCCC3)C[C@@H]2c2cccc(F)c2)CC1 |  | BaL | HeLa | β-galactosidase | 50% human serum | <0.1 µM
Cc1cn([C@H]2C[C@H](N=[N+]=[N-])[C@@H](CO)O2)c(=O)[nH]c1=O | RT-M41L D67N M184V L210W T215Y | NRTI resistant | HeLa | luciferase |  | 0.22 µM
CCn1nc(Cc2ccc(C(F)(F)F)cc2)cc1C1CCN(C[C@H]2CN([C@@H](C(=O)O)C3CCCCC3)C[C@@H]2c2cccc(F)c2)CC1 |  | BaL | HeLa | β-galactosidase |  | <0.0004 µM
Cc1ccnc2c1NC(=O)c1cccnc1N2C1CC1 | RT-L74V | NL4-3 | CEM + CEM-SS | XTT |  | 0.02 µM

A second listing of 2 rows from above:

SMILES	changes	strain or isolate	cell line	method	conditions	value
Cc1ccnc2c1NC(=O)c1cccnc1N2C1CC1	RT-L74V	NL4-3	CEM + CEM-SS	XTT		0.02 µM
CCCc1cc(=O)oc2c3c(c4c(c12)OC(C)(C)C=C4)O[C@@H](C)[C@H](C)[C@@H]3O		NL4-3	CEM + CEM-SS	XTT		0.2 µM